Tests used:
[1] = test system: CC(=O)CC(=O)SCCNC(=O)CCNC(=O)[C@H](O)C(C)(C)COP(=O)(O)OP(=O)(O)OC[C@H]1O[C@@H](n2cnc3c(N)ncnc32)[C@H](O)[C@@H]1OP(=O)(O)O; test: purified protein; conditions: 200 μM NADPH, 0.1 M sodium phosphate pH 7, 0.1 M LiCl, printed kcat 2.19 ± 078 sec^−1 (error misprinted)
[2] = test system: NC(=O)C1=CN([C@@H]2O[C@H](COP(=O)(O)OP(=O)(O)OC[C@H]3O[C@@H](n4cnc5c(N)ncnc54)[C@H](OP(=O)(O)O)[C@@H]3O)[C@@H](O)[C@H]2O)C=CC1; test: purified protein; conditions: 200 μM acetoacetyl-CoA, 0.1 M sodium phosphate pH 7, 0.1 M LiCl, varied: cofactor

RsFabG1 (Ralstonia pseudosolanacearum GMI1000)
Km [1]: 313.28 ± 14.5 µmol/L
Vmax [1]: 4.7 µmol/min/mg
Km [2]: 25.75 ± 3.8 µmol/L
Vmax [2]: 1.5 µmol/min/mg
kcat [2]: 0.71 s⁻¹
